As a reminder, the stoichiometry N is a count of units in the complex or per binding partner. A word on the EC50: it is the concentration needed to bring the measured effect to its halfway point.

The target of experiment [1] is H1 stem v1 (based on H1N1pdm A/California/07/2009 HA) (Influenza A virus H1N1pdm A/California/07/2009). The experiment in a line: SEC. (In gel filtration, larger molecules generally elute earlier.)
Experiment [2] has as its target CR9114. The experiment in a line: ELISA. Particulars: purified trimeric H1 stem protein from ExpiCHO cell cultures; n = 3; parent: est. 0.39; read off a plot. In general terms: An ELISA detects its analyte on a solid surface through an enzyme-linked reagent.
Experiment [3] addresses CT149. The experiment in a line: ELISA. Conditions: purified trimeric H1 stem protein from ExpiCHO cell cultures; n = 3; parent: est. 0.42; read off a plot.
Experiment [4] concerns the target SD38. The experiment in a line: ELISA. Particulars: purified trimeric H1 stem protein from ExpiCHO cell cultures; n = 3; parent: est. 0.60; read off a plot.

Turning to “H1 stem v1 (based on H1N1pdm A/California/07/2009 HA)”, in experiment [1], the stoichiometry N was 3.

Take “H1 stem v1 (based on H1N1pdm A/California/07/2009 HA) E434Q; Y392P”: the half-maximal effective concentration (EC50) worked out at 0.41 nM in experiment [2], 0.44 nM in experiment [3] and 0.63 nM in experiment [4].

On to “H1 stem v1 (based on H1N1pdm A/California/07/2009 HA) E434Q; Y392R”, for which the EC50 in experiment [2] came to 0.38 nM; in experiment [3] it was 0.4 nM; in experiment [4], 0.6 nM.
